The labels stand for the following.
B1: TCN-529 (5297_H01) (antibody, V domains shown)
VH: QITLRESGPTLVKPTQTLTLTCTFSGFSLSTNGVNVGWIRQPPGKALEWLALIYWDDDKRYSPSLKRRLTITKDTSKNQVVLTLTNMDPVDTATYYCAHRPDFYGDFEYWGPGTLVTVSS
VL: QSALTQPASVSGSPGQSITISCTGSSSDIGGYNYVSWYQQHPGKAPKLMIYDVNNRPSGVSNRFSGSKSGNTASLTISGLQTDDEADYYCGSYTGSPHYVFGTGTKVTVL
B2: TCN-534 (5249_B02) (antibody, V domains shown)
VH: QVQLVQSGAEVKKPGSSVKVSCRESGGTFNGYTITWVRQAPGQGLEWMGGIIPMMGTVNYAQKLQGRVTITTDYFTKTAYMDLNNLRSEDTAMYYCVKIRYTGQQLLWGQGTLVTVSS
VL: DIQMTQSPSTLSASIGDRVTITCRASQSIASWLAWYQQKPGKAPKLLIYEAVNLESGVPSRFSGSGSGTDFTLTISSLQPDDFATYFCQHYGTISQTFGGGTKVEIK
B3: TCN-527 (5086_C06) (antibody, V domains shown)
VH: QVQLQESGPGLVKPSETLSLNCAVSGGSISNYYWSWIRQPPGKGLEWIGYISYNGRPKYNPSLTSRVTISVDTSKDQFSLELRSVTAADTALYYCARETRFGELLSPYDAFEIWGQGTMVTVSS
VL: DIQMTQSPSSLSASVGDRVTMTCRASQNIRSYLNWYQQRPGTAPKLLIYAASTLHSGVPSRFSGGGSGTDFTLTINNLQPEDFASYYCQQSYDNPQTFGQGTKVEIK
B4: TCN-531 (5091_H13) (antibody, V domains shown)
VH: EVQLVESGGDLVQPGRSLKLSCTGSGFTFGDYGVTWVRQAPGKGLEWVGFIRTRPWGGTADTAASVKGRFTISRDDSKSLAYLQMNSLKTEDTAVYYCCRDAPPNVEVASMTNWYFDLWGRGTLVTVSS
VL: DIQLTQSPSSLSASVGDRVTITCRASQGILNCLAWYQQKPGKVPNLLMYAASTLQSGVPSRFSGSGFGTDFTLTISSLQPEDVATYYCQTYGGVSTFGGGTKVEIR
B5: TCN-537 (3194_D21) (antibody, V domains shown)
VH: QVQLQQWGSGLLKPSETLSLTCAVYGGSFRDDYWTWIRQPPGKGLEWIGEINHSGRTNYNPSLKSRVTISVDTSLKQFSLKVISVTAADTAVYYCARGTSHVSRYFDWLPPTNWFDPWGQGTQVTVSS
VL: DIVLTQSPGTLSLSPGERATLSCRASQSVSSSYLAWYQQKPGQAPRLVMYGAATRATGIPDRFSGSGSGPDFTLTISRLEPEDFAMYYCQQYGNSPITFGQGTRLEIK
B6: TCN-538 (3206_O17) (antibody, V domains shown)
VH: QITLKESGPTLVKPTQTLTLTCVFSGFSLSITGVRVGWIRQPPGKALEWLALISWDDEKHYSPSLQSRLTITKDTSKNQVVLTMTNLDPVDTATYYCARSTDRGHVLRYFGWMLPGDAFDVWGQGTMVTVSS
VL: DIVMTQSPDFLPVSLGERATINCKSSQRVLYSSNNKNYLAWYQLKPGQPPKLIIYWASTRESGVPDRFSGSGSGTEFTLTISSLQAEDVAVYYCQQYYSRPYTFGQGTKLEIK
B7: TCN-526 (5084_C17) (antibody, V domains shown)
VH: EVLMVESGGGLVQPGGSVRLSCVASGFSFSSHWMTWVRQAPGKGLEWVANIEDDGGDKYYVDSVKGRFIISRDNAKNSVYLQMNSLRAEDTAVYFCARGSGSSDRSDYDPHYYYYLDVWGKGATVTVSS
VL: DIQLTQSPSSLSASVGDRVTITCRASQSISRYLNWYQQKPGKAPKLLLFAASTLLDGVPSRFSGSGSGTDFTLTISSLQPEDFATYYCQRNHSPSWTFGQGTRVEIK
B8: TCN-536 (5095_N01) (antibody, V domains shown)
VH: QVQLQQWGAGLLKPSETLSLTCAVYGGSFSVSGYYWSWIRQPPGRGLEWIGEISHGGSTNYNPSLKSRVTISVDTTKNQFSLRLSSVTAADTAVYYCARGTDPDTEVYCRVGNCAAFDYWGQGSLVTVSS
VL: EIILAQSPGTLSLSPGERATLSCRASQFVSTRSLAWYQQRPGQAPRLLIYGASSRATGIPDRFSGSGSGTDFTLTISRLEPEDFAVYYCQHYGYSPRYAFGQGSKVEIK
B9: TCN-528 (5087_P17) (antibody, V domains shown)
VH: QVQLVQSGSEVKKPGASVKVSCKASGYTFTNYDINWIRQAPGQGLEWMGWINPNSGTTGSAQRFQGRVTITVDTSITTVYMELSSLRSDDTAIYYCARGRELLRLQHFLTDSQSERRDCFDPWGQGTLVTVSS
VL: DIQMTQSPSSLSASVGDRVTITCRANQDIGIYLNWYQQNPGKVPKLLLHGASSLQGGVPSRFSASGSGTDFTLTIHSLQPEDLATYYCQQSRRLPYTFGQGTRVELK
B10: TCN-530 (5248_H10a) (antibody, V domains shown)
VH: QVQLVQSGAEVRKPGSSVKVSCKASGGPFMSYAIGWVRQAPGQGLEWMGGINPVFGRPHYAQKFQGRVTIATDDSTKTSYMELSSLTSEDTGMYYCASRYSRSSPGTFESWGQGTLVTVSS
VL: EIVMTQFPATLSVSPGERVTLSCRASQSVSNNLAWYQQKPGQPPRLLIYDASTRATGVPAKFSGTGSGTEFTLSISSLQSEDFAVYYCQQYHNWPPSYSFGLGTKLEIK
B11: TCN-532 (5262_H18) (antibody, V domains shown)
VH: QVQLQESGPGLVKPSETLSLTCTVSGGSVSSETYYWSWIRQPPGKGLEWIGYIYYIGNTDYRPSLKSRVTISLDTSKNQFSLKLSSVTAADTAVYYCARGAYYDSSGYPAFYIWGQGTMVTVSS
VL: QSVLTQPPSVSGAPGQRVTISCTGSSSNIGSDYDVHWYKQLPGTAPKLLIFGNSNRPSGVPDRFSGSKSGTSASLAITGLQAEDEADYYCQSYDSSLSGFHVFGSGTKVTVL
B12: TCN-523 (5248_A17) (antibody, V domains shown)
VH: QVQLVQSGAEVKKPGSSVKVSCKASGGSFSNYAFSWVRQAPGQGLEWMGGTIPLLGTTNYAQKFQGRVTISADQFTSTAYMELGSLRSEDTAVYYCTRRKMTTAFDSWGQGTLVTVSS
VL: QPVLTQPPSASASLGASVTLTCTLSSAYSNYKVDWYQQRPGKGPRFVMRVGTGGIVGSKGDGIPDRFSVLGSGLNRYLTIKNIQEEDESDYHCGADHGSGSNFVSPYVFGGGTKLTVL
B13: TCN-533 (5256_A17a) (antibody, V domains shown)
VH: QVQLVQSGADVKKPGSSVTVSCKASGGSFSNYGINWVRQAPGQGLEWMGGIIPLINAPNYAPKFQGRVTITADMFSNIVSLQLTSLRTDDTAVYYCARRKMTTAIDYWGQGTLVTVSS
VL: QPVLTQPPSASASLGASVTLTCTLSSAYSNYKVDWYQQRPGKGPRFVMRVGTGGIVGSKGDGIPDRFSVLGSGLNRYLTIKNIQEEDESDYHCGADHGSGSNFVSPYVFGGGTKLTVL
B14: TCN-535 (5246_P19) (antibody, V domains shown)
VH: QVQLVQSGSEVKKPGTSVKVSCTASGSVFTNYGISWVRQAPGQGLEWMGGIIPLFGAAKYAQKFQGRVTITADESTKTVYMELSRLTSKDTAIYFCAKAPRVYEYYFDQWGQGTPVTVSS
VL: EIVLTQSPGTLSLSPGERATLSCRASQSVSSSQLAWYQQKPGQAPRLIIYGASTRATGIPDRFSGSGSGTDFTLTIGRLEPEDFAVFFCQQYSTSPPTFGQGTKVDFK
B15: TCN-522 (3212_I12) (antibody, V domains shown)
VH: QVQLQQWGAGLLKPSETLSLTCTVSGGSLTDYSWNWIRQPPGKGLEWIGDTLHNGYTNYNPSLRGRVSISIDTSKNQVSLRLTSVTAADTALYYCARGSGGYGGFDYFGKLRTWDFWGQGTLVTVSS
VL: DIQLTQSPSSLSASVGDRVTITCRASQGIRNDLGWYQQKPGNAPKRLIFGASSLQSGVPSRFSGSGSGTEFTLTISSLQPEDFATYYCLQHNSYPYTFGQGTKLEIK

For the experiment, the target named is hemagglutinin on whole inactivated influenza A virions, A/Japan/305/57 H2N2 (Influenza A virus A/Japan/305/1957(H2N2)).
As for B1, the “ELISA: Virus Binding (OD450)” value was determined as 0.07 OD450. The same measure for B2: 3.56 OD450; for B3: 3.62 OD450. The same measure for B4: 0.07 OD450.

As to B5, the “ELISA: Virus Binding (OD450)” value amounted to 3.59 OD450. With B6, the “ELISA: Virus Binding (OD450)” value is 3.6 OD450. The same measure for B7: 0.07 OD450; for B8: 0.07 OD450; for B9: 3.61 OD450.

As to B10, the “ELISA: Virus Binding (OD450)” value was 3.43 OD450. As for B11, the “ELISA: Virus Binding (OD450)” value is 0.07 OD450.

As for B12, the “ELISA: Virus Binding (OD450)” value amounted to 3.55 OD450. For the molecule B13, the “ELISA: Virus Binding (OD450)” value was determined as 3.56 OD450. B14: the “ELISA: Virus Binding (OD450)” value was 3.35 OD450. The same measure for B15: 3.48 OD450.

Values taken from patent US20150086555A1 (THERACLONE SCIENCES, published 2015).
